Test results as given in ChEMBL document CHEMBL2163206, “New nitrogen containing substituents at the indole-2-carboxamide yield high potent and broad spectrum indolylarylsulfone HIV-1 non-nucleoside reverse transcriptase inhibitors” (J Med Chem, 2012).

Tested on: Human immunodeficiency virus type 1 reverse transcriptase (Human immunodeficiency virus 1), Q72547 [L100I]
Test: Potency index, ratio of IC50 for nevirapine to IC50 for compound against HIV1 reverse transcriptase L100I mutant RNA-dependent DNA polymerase activity using poly(rA)/oligo(dT)10:1 and [3H]-dTTP substrate

**Q.** For `Cc1cc(C)cc(S(=O)(=O)c2c(C(=O)NCc3cccnc3)[nH]c3ccc(Cl)cc23)c1`, which Ratio IC50 is on record?
**A.** > 1000
